Screening data, single-dose tests

The values are deposited in ChEMBL (CHEMBL3988442, “University of Dundee, Small-Polar-MMV Screening Library” (2021)).

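Growth of Mycobacterium tuberculosis over 4 days (cholesterol / DPPC medium with tyloxapol); the read-out is not stated. Concentration: 500 µM. Direction is inferred from retests: higher values go with more growth inhibition. About 18,000 compounds were tested under these conditions; 5% (about 900) showed 50% or more at least once.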

Values are the deposited “Percent Effect”, in %. How 0% and 100% were set is not recorded. Most values in the screen are low, and negative values occur. This is part of a subset picked to be rich in strong results.

{"smiles": "CC(C)NC(=O)N(C)C1CCS(=O)(=O)C1", "stereo": "stereo not given", "effect": 1.012}
{"smiles": "CN(CCc1ccccc1)CCS(=O)(=O)CCC(N)=O", "effect": 73.96}
{"smiles": "CCNC(=O)N1CCC(=O)N(CC)C2(CCOCC2)C1", "effect": -6.118}
{"smiles": "CNCC(O)c1cccc(Br)c1", "stereo": "stereo not given", "effect": 0.4203}
{"smiles": "N#CC(c1cccc(Cl)c1)N1CCNCC1", "stereo": "stereo not given", "effect": -4.712}
{"smiles": "COC(=O)Cn1cnc(N)n1", "effect": 2.316}
{"smiles": "COc1ccc(CN2CCCCC2C)cn1", "stereo": "stereo not given", "effect": -4.669}
{"smiles": "CC(C)C(O)CCNS(=O)(=O)c1ccccc1", "stereo": "stereo not given", "effect": 8.189}
{"smiles": "COc1ccc(CCN)c(O)c1", "effect": 52.08}
{"smiles": "Cc1cc(C2CCC2)nc(N2CCNC(=O)C2)n1", "effect": 47.9}
{"smiles": "COC(=O)Cc1cc(O)n[nH]1", "effect": -15.77}
{"smiles": "CC(C)NC(=O)CS(=O)(=O)Cc1ccccc1F", "effect": -4.255}
{"smiles": "NCc1cccc2occc12", "effect": 1.995}
{"smiles": "Cn1cc(CNCCNC(=O)c2cccs2)cn1", "effect": -2.168}
{"smiles": "O=C(CNc1ccccc1F)NC1CC1", "effect": -5.97}
{"smiles": "c1ccc(OCCCOC2CNC2)cc1", "effect": 50.42}
{"smiles": "NCCc1cccs1", "effect": -14.01}
{"smiles": "CN1CCN(C(=O)Cc2cn(C)c3ccccc23)CC1", "effect": 9.289}
{"smiles": "CC(CC(=O)N1CCOCC1)c1ccccc1", "stereo": "stereo not given", "effect": 39.43}
{"smiles": "CS(=O)(=O)N1CCN(C(=O)Nc2cccnc2)CC1", "effect": -24.01}
{"smiles": "NCc1cc(Oc2cccc(F)c2)ccn1", "effect": 77.72}
{"smiles": "CCc1nccn1CCNC(=O)CN1CCCC1", "effect": -0.1216}
{"smiles": "COc1ccc(CC(=O)N2CCCNCC2)cc1", "effect": 8.089}
{"smiles": "Cc1ccc2cc(C(=O)N[C@@H](C)C(N)=O)ccc2n1", "effect": -19.91}
{"smiles": "Cc1nccn1CCCN1CCN(C)C(CCO)C1", "stereo": "stereo not given", "effect": 14.21}
{"smiles": "CCc1ccc(C(=O)NCc2ccccn2)o1", "effect": 61.69}
{"smiles": "Cc1nocc1CN", "effect": -0.8503}
{"smiles": "C[C@@]1(O)CCN(C(=O)CN)C[C@@H]1Cc1ccccc1", "effect": 62.35}
{"smiles": "CCN1CCCC1CNC(=O)c1cncc(Br)c1", "stereo": "stereo not given", "effect": 0.7205}
{"smiles": "CC(CO)(CO)NCc1cnn(-c2ccc(Br)cc2)c1", "effect": 59.74}
{"smiles": "COCC1CCN(C(=O)c2cc(C3CC3)on2)CC1", "effect": 61.28}
{"smiles": "O=C(CN1CCCCC1)Nc1cc(Br)ccn1", "effect": -7.32}
{"smiles": "Cc1nc2ccc(NC(=O)C3=NNC(=O)CC3)cc2s1", "effect": 5.477}
{"smiles": "CCNCc1ccc(OCC(N)=O)cc1", "effect": -8.486}
{"smiles": "N#CC1(C(=O)NCc2ccccc2F)CC1", "effect": 61.86}
{"smiles": "NCC(c1ccco1)N1CCCCC1", "stereo": "stereo not given", "effect": 6.904}
{"smiles": "NC(=O)CNc1cccc2ccccc12", "effect": -1.309}
{"smiles": "CCC[C@H]1CN(C(=O)c2cccc(COC)n2)C[C@@H]1N", "effect": -3.804}
{"smiles": "CCOc1ccccc1OC1CCN(CC(N)=O)CC1", "effect": -22.37}
{"smiles": "CCN(C(=O)c1ccc(=O)n(C)n1)C1CCCC1", "effect": -0.08588}
{"smiles": "CCc1nn(C)c(CC)c1S(=O)(=O)N1CCCNCC1", "effect": 4.386}
{"smiles": "CCSc1nnc(-c2ccc[nH]2)o1", "effect": 55.99}
{"smiles": "CN(Cc1ccsc1)C(=O)CNC(=O)c1ccc(Br)o1", "effect": 72.22}
{"smiles": "O=C(Cn1cnc2ccccc2c1=O)N1CCCCC1", "effect": -8.636}
{"smiles": "CCCn1nnc(NC(=O)c2cccnc2)n1", "effect": 13.71}
{"smiles": "COCC(C)NC(=O)N(C)Cc1c(C)noc1C", "stereo": "stereo not given", "effect": 3.785}
{"smiles": "O=C(CS(=O)(=O)Cc1cccc(Cl)c1)NCC1CC1", "effect": 53.52}
{"smiles": "N#Cc1ccc(OCC(=O)Nc2ccccn2)cc1", "effect": 73.33}
{"smiles": "CCN1C(=O)C[C@H](CN)[C@H]1c1cccnc1", "effect": -0.171}
{"smiles": "CC(C)N(C)S(=O)(=O)NCCCN(C)c1ccccc1", "effect": 77.47}
{"smiles": "CNCc1cnn(-c2ccccc2)c1", "effect": -10.8}
{"smiles": "OCC1(NCc2ccc(F)c(Cl)c2)CCOCC1", "effect": 8.776}
{"smiles": "OC(Cc1ccccc1)C1CCNCC1", "stereo": "stereo not given", "effect": -7.945}
{"smiles": "Cc1oncc1CN1C[C@@H](F)C[C@H]1CN", "effect": 4.554}
{"smiles": "CCOc1cc(C(=O)NC2=NCCS2)ccc1OC", "effect": -7.036}
{"smiles": "CCCNC(=O)NCCc1noc(-c2cccnc2)n1", "effect": 5.047}
{"smiles": "CCOc1ccc(Cl)cc1CNc1nnnn1C", "effect": 24.21}
{"smiles": "OCCc1cnn(-c2ccc(F)cn2)c1", "effect": 5.622}
{"smiles": "CS(=O)(=O)NCCNC(=O)c1ccc2ccccc2n1", "effect": -14.26}
{"smiles": "CC(C)NC(=O)CSc1nc(C=Cc2cccs2)n[nH]1", "effect": 88.49}
{"smiles": "N[C@H]1CCN(S(=O)(=O)c2ccc(F)c(C(F)(F)F)c2)C1", "effect": 59.39}
{"smiles": "CN(Cc1cccc(C(N)=O)c1)C(=O)c1occc1Br", "effect": 14.02}

For reference, 6 entries once more:

{"smiles": "CCNCc1ccc(OCC(N)=O)cc1", "effect": -8.486}
{"smiles": "CN(CCc1ccccc1)CCS(=O)(=O)CCC(N)=O", "effect": 73.96}
{"smiles": "OCC1(NCc2ccc(F)c(Cl)c2)CCOCC1", "effect": 8.776}
{"smiles": "NCC(c1ccco1)N1CCCCC1", "stereo": "stereo not given", "effect": 6.904}
{"smiles": "Cc1nocc1CN", "effect": -0.8503}
{"smiles": "Cc1cc(C2CCC2)nc(N2CCNC(=O)C2)n1", "effect": 47.9}